A mixed list of measured activities; the numbers were collected in NIAID ChemDB.

Shared fields: cytotoxicity tests; cells: CEM; read-out: CC50

CCn: concentration that lowers growth or viability of the cells by n%.

smiles,method,result
N#C/C(=C/c1ccccc1)Sc1cccc[n+]1[O-],cell count,8.7 µg/mL
CCCCCO[C@]12CS(=O)(=O)O[C@@]13[C@@H](CN2)O[C@@H](n1cc(C)c(=O)[nH]c1=O)[C@@H]3O,-,>250 µM
CCCCC(=O)c1ccc2c(c1)sc(=O)n2CCN1CCCCC1,-,10 µg/mL
COc1ccc(CS(=O)c2cccc[n+]2[O-])cc1,cell count,2.1 µg/mL
CO[C@]12CS(=O)(=O)O[C@@]13[C@@H](CN2)O[C@@H](n1cc(C)c(=O)[nH]c1=O)[C@@H]3O,-,>250 µM
O=C1NC(=O)C(CS)(CSCc2ccccc2)N1,-,>5 µM
COC1=C(C2=C(C3=C(O)C(=O)c4ccccc4C3=O)C(=O)c3ccccc3C2=O)C(=O)c2ccccc2C1=O,MTT,>100 µM
CCCCCCCCCCCCCCCC[n+]1ccc2cc(OC)c(OC)c3c2c1C=CN3,-,1.8 µM
CCC(C)NC(=O)c1ccccc1SSc1ccccc1C(=O)NC(C)CC,-,15 µM
Cc1cn([C@@H]2O[C@@H]3CN[C@@]4(C(N)=O)CS(=O)(=O)O[C@@]34[C@H]2O)c(=O)[nH]c1=O,-,>250 µM
O=C(O)c1ccc(CS(=O)(=O)c2cccc[n+]2[O-])cc1,cell count,>100 µg/mL
CN[C@H](CC(C)C)C(=O)N[C@H]1C(=O)N[C@@H](CC(N)=O)C(=O)N[C@H]2C(=O)N[C@H]3C(=O)N[C@H](C(=O)N[C@H](C(=O)O)c4cc(O)cc(O)c4-c4cc3ccc4O)[C@H](O[C@H]3C[C@](C)(N)[C@@H](O)[C@H](C)O3)c3ccc(cc3)Oc3cc2cc(c3OC2O[C@H](CO)[C@@H](O)[C@H](O)[C@H]2O[C@H]2C[C@](C)(N)[C@@H](O)[C@H](C)O2)Oc2ccc(cc2Cl)[C@H]1O,cell count,>500 µM
Cc1ccc(N)cc1C(C)S(=O)(=O)c1cccc[n+]1[O-],cell count,≥100 µg/mL
CC(=O)Nc1ccc(SSc2ccc(NC(C)=O)cc2C(N)=O)c(C(N)=O)c1,-,>120 µM
CCCCCCCN1C=Cc2nccc3cc(OC)c(OC)c1c23,-,3.8 µM
Cc1ccc(C)c(C(Cl)S(=O)(=O)c2c(Cl)ccc[n+]2[O-])c1,cell count,15 µg/mL
O=C(N[C@H]1C(=O)N[C@@H]2Cc3ccc(c(Cl)c3)Oc3cc4cc(c3O)Oc3ccc(cc3Cl)[C@@H](O)[C@@H]3NC(=O)[C@H](NC(=O)[C@@H]4NC(=O)[C@@H](NC2=O)c2cc(O)cc(c2)Oc2cc1ccc2O)c1ccc(O)c(c1)-c1c(O)cc(O)cc1[C@@H](C(=O)O)NC3=O)OCc1ccccc1,cell count,>250 µM
NNC(=O)c1ccccc1SSc1ccccc1C(=O)NN,-,16 µM
C/C(=N\NC(=O)CN1c2c(-c3ccccc3)n[nH]c2-c2ccccc2S1(=O)=O)c1nccs1,MTS,8.2 µM
Cc1cccc(C)c1C(=O)N1CCC(C)(N2CCC(Nc3ccc(Br)cc3)CC2)CC1,-,67 µM
CCCC[n+]1ccc2cc(OC)c(OC)c3c2c1C=CN3,-,5.7 µM
CCCCC(=O)c1ccc2c(c1)sc(=O)n2CCN1CCOCC1,-,11 µg/mL
CCCC1(Cc2ccc3ccccc3c2)CC(O)=C(Sc2ccccc2C)C(=O)O1,-,34.8 µM
O=C1NC(=O)C(CSCC2CCCCC2)(CSCC2CCCCC2)N1,-,>8 µM
CNS(=O)(=O)c1ccc(NC(=O)c2ccccc2SSc2ccccc2C(=O)Nc2ccc(S(=O)(=O)NC)cc2)cc1,-,12 µM
CCOc1cccnc1SCc1ccccc1,cell count,90 µg/mL
O=C(NCCO)c1ccccc1SSc1ccccc1C(=O)NCCO,-,16 µM
CCS[C@]12CS(=O)(=O)O[C@@]13[C@@H](CN2)O[C@@H](n1cc(C)c(=O)[nH]c1=O)[C@@H]3O,-,>250 µM
COc1cccc2c1C(=O)C(C1=C(N)C(=O)c3ccccc3C1=O)=C(Cl)C2=O,MTT,5.7 µM
Cc1ccc[n+]([O-])c1S(=O)(=O)Cc1ccccc1Cl,cell count,21 µg/mL
Cn1c(=O)sc2cc(C(=O)c3cccc([N+](=O)[O-])c3)ccc21,-,>40 µg/mL
Cc1ccc(CS(=O)c2cccc[n+]2[O-])cc1,cell count,11 µg/mL
COC1=C(C2=C(Br)C(=O)c3cc(OC)ccc3C2=O)C(=O)c2ccccc2C1=O,MTT,2.8 µM
Cc1cn([C@@H]2O[C@@H]3CN[C@H]4CS(=O)(=O)O[C@]43[C@H]2O[Si](C)(C)C(C)(C)C)c(=O)[nH]c1=O,-,>125 µM
Cc1ccc(C)c(C(C)S(=O)(=O)c2c(C)ccc[n+]2[O-])c1,cell count,38 µg/mL
O=C1NC(=O)C(CSC(=O)c2ccccc2)(CSC(=O)c2ccccc2)N1,-,>31 µM
N[C@H]1C(=O)N[C@@H]2Cc3ccc(c(Cl)c3)Oc3cc4cc(c3O)Oc3ccc(cc3Cl)[C@@H](O)[C@@H]3NC(=O)[C@H](NC(=O)[C@@H]4NC(=O)[C@@H](NC2=O)c2cc(O)cc(c2)Oc2cc1ccc2O)c1ccc(O)c(c1)-c1c(O)cc(O)cc1[C@@H](C(=O)C1NCCC2CCCCC21)NC3=O,cell count,>250 µM
CCCOC12CS(=O)(=O)OC13[C@@H](CN2)O[C@@H](n1cc(C)c(=O)[nH]c1=O)[C@@H]3O,-,>250 µM
O=C1NC(=O)C(CSCc2cccnc2)(CSCc2cccnc2)N1,-,>100 µM
CC(=O)c1ccc(NC(=O)c2ccccc2SSc2ccccc2C(=O)Nc2ccc(C(C)=O)cc2)cc1,-,54 µM
CC(c1ccc(F)cc1)S(=O)c1cccc[n+]1[O-],cell count,0.33 µg/mL
COc1cc2cc[n+](CCC(C)C)c3c2c(c1OC)NC=C3,-,10.9 µM
C/C(=N\NC(=O)CN1c2c(-c3ccccc3)n[nH]c2-c2ccccc2S1(=O)=O)c1cc(Cl)sc1Cl,MTS,14.4 µM
O=C(NC1CC1)c1ccccc1SSc1ccccc1C(=O)NC1CC1,-,90 µM
Cc1ccccc1CS(=O)(=O)c1c(C)ccc[n+]1[O-],cell count,17 µg/mL
C/C(=N\NC(=O)CN1c2c(-c3ccccc3)n[nH]c2-c2ccccc2S1(=O)=O)c1ccsc1,MTS,10.7 µM
O=[N+]([O-])c1cc(CS(=O)(=O)c2cccc[n+]2[O-])ccc1Cl,cell count,4.3 µg/mL
NC1=C(C2=C(Cl)C(=O)c3ccccc3C2=O)C(=O)c2ccccc2C1=O,MTT,5.7 µM
Cc1ccc[n+]([O-])c1S(=O)(=O)Cc1c(Cl)cccc1Cl,cell count,70 µg/mL
O=c1[nH]c2ccc(Cc3ccccc3F)cc2o1,-,4.5 µg/mL
Cc1cc(CS(=O)(=O)c2cccc[n+]2[O-])ccc1[N+](=O)[O-],cell count,4.9 µg/mL
O=C(Nc1cccc(O)c1)c1ccccc1SSc1ccccc1C(=O)Nc1cccc(O)c1,-,22 µM
Cc1ccc(C)c(CSc2c(O)ccc[n+]2[O-])c1,cell count,65 µg/mL
COc1ccc2c(c1)C(=O)C(=O)C(C1=C(Cl)C(=O)c3ccccc3C1=O)=C2O,MTT,5.3 µM
Cc1ccc(C)c(C(Cc2ccccc2)Sc2cccc[n+]2[O-])c1,cell count,2.6 µg/mL
O=C1N[C@H]2C(=O)N[C@H]3C(=O)N[C@H](C(=O)N[C@H](C(=O)O)c4cc(O)cc(O)c4-c4cc3ccc4O)[C@H](O)c3ccc(c(Cl)c3)Oc3cc2cc(c3O)Oc2ccc(cc2Cl)C[C@H]2NC(=O)[C@H](NC(=S)Nc3ccccc3)c3ccc(O)c(c3)Oc3cc(O)cc(c3)[C@@H]1NC2=O,cell count,220 µM
O=S(Cc1cccc(C(F)(F)F)c1)c1cccc[n+]1[O-],cell count,54 µg/mL
COc1cc2c3c(ccnc3c1OC)NC=C2,-,3.3 µM
C/C(=N\NC(=O)CN1c2c(-c3ccccc3)n[nH]c2-c2ccccc2S1(=O)=O)c1cc(C)cs1,MTS,18.3 µM
COc1ccc(C)cc1CSc1cccc[n+]1[O-],cell count,31 µg/mL

A second listing of 5 rows from above:

smiles	method	result
CCC(C)NC(=O)c1ccccc1SSc1ccccc1C(=O)NC(C)CC	-	15 µM
CCCCC(=O)c1ccc2c(c1)sc(=O)n2CCN1CCOCC1	-	11 µg/mL
COc1ccc(CS(=O)c2cccc[n+]2[O-])cc1	cell count	2.1 µg/mL
Cc1ccc[n+]([O-])c1S(=O)(=O)Cc1ccccc1Cl	cell count	21 µg/mL
COC1=C(C2=C(C3=C(O)C(=O)c4ccccc4C3=O)C(=O)c3ccccc3C2=O)C(=O)c2ccccc2C1=O	MTT	>100 µM

An empty or dashed field is not shown. Conditions beyond the fields shown may differ between rows.